1 protein from PMC3133661 (Biochemistry, 2011) can be followed below.

The series deals with the molecule itself. The experiment in a line: crystal structure.

B1: selenomethionine-labeled full-length PhoP of Mycobacterium tuberculosis (natural protein)
chain: not shown
modifications: selenomethionine in place of methionine (100% incorporation of selenium atoms by mass spectroscopy)
Turning to B1, the binding result is “binds”.
